{"sequences": {"note": "By UniProt entry, the sequences of proteins in these tests, tags left out. Residues count along the entry.", "UniProt Q9GZZ6, 25-450 limits assumed": "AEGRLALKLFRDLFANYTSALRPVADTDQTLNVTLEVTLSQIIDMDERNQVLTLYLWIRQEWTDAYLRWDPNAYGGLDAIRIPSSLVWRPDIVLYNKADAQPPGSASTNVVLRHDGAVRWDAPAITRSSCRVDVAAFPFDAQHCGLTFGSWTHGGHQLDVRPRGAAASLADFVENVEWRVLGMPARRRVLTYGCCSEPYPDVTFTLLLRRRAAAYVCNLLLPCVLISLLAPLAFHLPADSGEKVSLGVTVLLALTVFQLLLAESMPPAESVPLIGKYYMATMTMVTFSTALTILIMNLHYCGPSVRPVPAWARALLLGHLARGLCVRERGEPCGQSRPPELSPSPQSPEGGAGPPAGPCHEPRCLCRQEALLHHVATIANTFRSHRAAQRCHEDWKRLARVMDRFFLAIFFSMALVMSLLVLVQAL", "UniProt Q9UGM1, 26-479 limits assumed": "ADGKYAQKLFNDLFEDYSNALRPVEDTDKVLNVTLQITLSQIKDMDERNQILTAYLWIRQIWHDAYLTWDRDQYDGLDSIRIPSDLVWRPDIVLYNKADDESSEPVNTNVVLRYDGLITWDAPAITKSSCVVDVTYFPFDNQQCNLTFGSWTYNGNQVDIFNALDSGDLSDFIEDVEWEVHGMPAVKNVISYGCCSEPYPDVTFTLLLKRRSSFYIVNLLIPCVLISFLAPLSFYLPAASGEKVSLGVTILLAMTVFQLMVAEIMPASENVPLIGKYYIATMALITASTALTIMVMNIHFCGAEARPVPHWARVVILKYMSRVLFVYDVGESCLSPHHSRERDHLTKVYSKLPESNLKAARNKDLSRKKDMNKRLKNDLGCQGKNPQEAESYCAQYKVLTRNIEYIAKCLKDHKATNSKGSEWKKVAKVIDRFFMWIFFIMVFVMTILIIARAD"}, "source": "patent US10633417B2", "about": "(priority 2013, dated 2020)", "target": "human α9α10 nAChR (Homo sapiens, UniProt Q9GZZ6+Q9UGM1)", "experiment": "functional activity on human α9α10 nAChR expressed in Xenopus oocytes", "format": "cell-based", "conditions": "read-out: Human α9α10 IC50, analogs with a C-terminal COOH", "note": "Some compounds may have been tested in ways that are not shown here.", "data": [{"smiles": "C[C@@H](O)[C@@H]1NC(=O)[C@@H]2CSSC[C@@H](C(=O)N[C@@H](Cc3ccc(O)cc3)C(=O)O)NC(=O)[C@H](CCC(N)=O)NC(=O)[C@H](Cc3ccc(O)c(I)c3)NC(=O)[C@H](CCCNC(=N)N)NC(=O)[C@H](CSSC[C@H](NC(=O)CN)C(=O)N2)NC(=O)[C@H](CCCNC(=N)N)NC(=O)[C@@H]2CCCN2C(=O)[C@H](CC(=O)O)NC1=O", "note": "[Analog 11]", "values": [{"measurement": "IC50", "result": 0.44, "unit": "nM"}]}]}
